Data source: PubChem BioAssay AID504761 (Drosophila RNAi Screening Center, 2011)
In all, the deposit lists about 22,000 reagents; below is an unselected part of those that have a named target and a result. Over the whole deposit, 116 (0.52%) were called active. 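Calls depend on retest data that are not deposited; infection was ranked per plate without normalising between plates; the unit of the infection score is not given.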 The raw values are shown without normalisation. Unmarked entries are inactive. Not stated in the record: the amount of reagent, the time to read-out.

- Screen: 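Genome-wide fly cell screen for genes dengue virus requires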 (primary screen)
- System: D.Mel-2 cells from Drosophila
- Reagent: long dsRNA against Drosophila genes
- Treatment: infection with dengue virus type 2; dose and infection time not stated
- Measured: 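Per well on two replicate plates, imaging gave the percent of cells positive for viral envelope protein, ranked by infection, and a nuclear count of cells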
- Scale: infection score: higher = more virus-infected cells; cell count: higher = more cells in the well
- Call rule: 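Low infection ranks in the two replicates (chance level up to 0.065) followed by a retest with a 1.5-fold or larger significant decrease, p below 0.05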
- Calls: active = confirmed: knock-down lowers infection; inactive = not picked or not confirmed

Gene	dsRNA	infection score, replicate 1	infection score, replicate 2	cell count, replicate 1	cell count, replicate 2
alpha-Est3	DRSC12615	2.78	3.49	6432	6533
Roc1a	DRSC18483	6.65	3.93	5172	5701
Ifrd1	DRSC00415	2.05	2.22	6533	6758
Ifrd1	DRSC00566	5.72	7.74	6509	6913
CG2604	DRSC12313	8.36	6.8	6795	6951
CG2604	DRSC29919	11.4	23.2	6542	6387
Tsen54	DRSC10527	2.71	2.9	6233	6404
Tsen54	DRSC27583	10.6	3.87	5813	6671
tsl	DRSC17090	2.35	1.97	6902	6636
dia	DRSC03519	3.71	2.75	4397	5596
dia	DRSC24127	1.19	4.36	6063	5178
CG5003	DRSC15694	18.3	16.4	6486	6470
CG5003	DRSC26689	1.42	0.74	5979	6066
TwdlC	DRSC14749	0.99	2.85	6293	6431
TwdlC	DRSC25255	8.98	9.01	7186	6716
CG9213	DRSC20170	3.76	1.92	6272	6367
CG9213	DRSC24500	4.24	4.95	6697	5975
CG1958	DRSC18196		1.65	701	790
CG1958	DRSC25599	3.87	7.11	6593	6849
CG31517	DRSC13010	6.66	3.23	5717	6343
CG33169	DRSC11853	16.5	11.1	6061	6748
CG33169	DRSC27830	11.2	17.1	6409	6501
Cka	DRSC03476	1.66	7.57	6213	6649
Cka	DRSC22858	2.52	4.65	7109	7326

Entries above whose target name begins with I or i (2):
Gene	dsRNA	infection score, replicate 1	infection score, replicate 2	cell count, replicate 1	cell count, replicate 2
Ifrd1	DRSC00415	2.05	2.22	6533	6758
Ifrd1	DRSC00566	5.72	7.74	6509	6913
